Measurements: patent publication US10227373B2 (priority 2014, dated 2019)

Test system: MDCK cells
Assay: Cell viability (CC50), MDCK host cells

SMILES: Nc1ncc(Br)c2c1ncn2[C@@H]1C=C(CO)[C@@H](O)[C@H]1O [3-Bromo-3-deazaneplanocin]
- CC50 (Flu A (H1N1) assay): 220 µM
- CC50 (Flu A (H3N2) assay): > 290 µM
- CC50 (Influenza B assay): 1.1 µM
